The source of these data is ChEMBL document CHEMBL1147716, “A series of 5-aminosubstituted 4-fluorobenzyl-8-hydroxy-[1,6]naphthyridine-7-carboxamide HIV-1 integrase inhibitors” (Bioorg Med Chem Lett, 2006).

The species entered for the data set is Homo sapiens. Description: Protein binding in human plasma at pH 7.4. Particulars: read-out: PPB (converted).

Take `CN(C)C(=O)CN(C)c1nc(C(=O)NCc2ccc(F)cc2)c(O)c2ncccc12`: the fraction unbound was 0.167.
On to `CN(C)C(=O)C(=O)N(C)c1nc(C(=O)NCc2ccc(F)cc2)c(O)c2ncccc12`, for which the fraction unbound was 0.068.
